Experimental data taken from the supplement of paper PMC9931576.
Human monoclonal antibodies against the spike receptor-binding domain (heavy:light variable regions). IC50 against pseudoviruses bearing the spike of naturally observed variants; lower = stronger; >10 µg/ml means not reached at the top dose. No active / inactive call. The stated detection limit is 0.0005 µg/ml; values near or below 0.001 µg/ml lie at the floor of the assay.

B1: BD56-515 (protein)
chain 1: QVQLQESGPGLMKPSGTLSLTCAVSGDSISRNTWWGWVRQPPGKGLEWIGEIYHSGSTNYNPSLESRVTISIDKSKNQFSLKLNSLTAADTALYYCAKGGSGSSFLAYYFDYWGRGTLVTVSS
chain 2: EIVMTQSPATLSVSPGEKATLSCRASQSISTHLAWYQQKPGQAPRLLIYGASTRATGIPARFSGSGSVTEFTLTISSLQSEDFAVYYCQQYNNWPPMYTFGQGTKLEIK
B2: BD56-518 (protein)
chain 1: QVQLVQSGSELKKPGASVKVSCKASGYTLVNYAMNWVRQAPGQGLEWMGWINTKTGDPVYAQGFTGRFVFSLDTSVNTAYLQISSLKAEDTAVYYCARDSGLLSFGELFHAFDIWGRGTMVTVSS
chain 2: EIVLTQSPATLSLSPGERATLSCRASQSLNSYLVWYQQRPGQAPRLLIYDASKRATGIPARFSGSGSGTDFTLTITGLEPEDFAVYYCQQRTNWLWTFGQGTKVEIK
B3: BD56-520 (protein)
chain 1: EVQLVESGGGLVQPGGSLRLSCAASGFTFSNYWMTWVRQGQGKGLDWVANINQHGSEKSYVDSVKGRFTVSRDNAKNSLYLQMNSLRAEDTAVYYCARAWSPSSCYYDNSDYYGCAFGIWGQGTMVTVSS
chain 2: DIQMTQSPSSLSASVGDSVAITCRASQTVSRYLNWYQQKPGKAPRLLIYAASSLQSGVPSRFSGSGSGTDFTLTISSLQPEDFATYYCQQSYSTPPTFGQGTRLEIK
B4: BD56-522 (protein)
chain 1: QVQLVESGGGVVQPGRSLRLSCAASGFTFSNYAMHWVRQAPGKGLEWVAVILYDGSYKAYADSVKGRFTISRDNSKNTLYLQMNSLRADDTAVYYCARDQGVTVTHFDYWGQGTLVTISS
chain 2: DIQMTQSPSSLSASIGDRVTITCRASQRIGSYLNWYQQKPGKAPKLLIYTTSSLQSGVPSRFSGSGSGTDFTLTISNLQPEDFATYYCQQSYNTPPWTFGQGTKVEIK
B5: BD56-524 (protein)
chain 1: QVTLRESGPALVKPTQTLTLTCTFSGFSLTTSGLCVTWVRQPPGKALEWLALIDWDDDKKYSTSLKTRLTISKDTSRNQVVLTMTNMDPVDTATYYCARAFYDYDSSNYFNGFGFDFWGRGILVTVSS
chain 2: EIVLTQSPGTLSLSPGERATLSCRASQSIDSRYLVWYQQKPGQAPRLIIYGASRRATGIPDRFSGSGSGTDFTLTISRLEPEDFAVYYCQQFGSSPWTFGQGTKVEFK
B6: DH1193 (protein)
chain 1: QVQLVESGGGVVQPGRSLRLSCAASGFTFSNYGMHWVRQAPGKGLEWVTVISYDGSNKYYADSVKGRFTISRDNSKNTLYLQMNSLRAEDTAVYYCAKVLTWSIHPEDYYYGMDVWGQGTTVTVSS
chain 2: QSALTQPPSASGSPGQSVTISCTGTSSDVGGYNYVSWYQQHPGKAPKLMIYEVSQRPSGVPDRFSGSKSGNTASLTVSGLQAEDEADYYCSSYAGSNIGVFGGGTTLTVL

What follows are binders tested against SARS-CoV-2 Omicron BA.1 spike pseudovirus (assay: pseudovirus neutralization IC50; higher = weaker neutralization).
Method: (§1)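 Single-round VSV luciferase pseudovirus mixed with antibody dilutions for 1 h and put on Huh-7 cells for about a day; IC50 from the dose curve.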

| Binder | pseudovirus neutralization IC50 [µg/mL] |
| --- | --- |
| B1 | > 10 |
| B2 | 0.0148 |
| B3 | 0.0345 |
| B4 | 6.32 |
| B5 | 0.0024 |
| B6 | 2.88 |

What follows are binders tested against SARS-CoV-2 Omicron BA.2 spike pseudovirus in the same assay as above.
Method: as §1

| Binder | pseudovirus neutralization IC50 [µg/mL] |
| --- | --- |
| B1 | > 10 |
| B2 | 0.00743 |
| B3 | 0.0741 |
| B4 | 5.77 |
| B5 | 0.0005 |
| B6 | 3.29 |

These binders were tested against SARS-CoV-2 Omicron BA.2.75 spike pseudovirus in the same assay as above.
Method: as §1

| Binder | pseudovirus neutralization IC50 [µg/mL] |
| --- | --- |
| B1 | > 10 |
| B2 | > 10 |
| B3 | 0.0725 |
| B4 | 9.19 |
| B5 | 0.000878 |
| B6 | 2.54 |

Each binder was assayed against SARS-CoV-2 Omicron BA.5 spike pseudovirus in the same assay as above.
Method: as §1

| Binder | pseudovirus neutralization IC50 [µg/mL] |
| --- | --- |
| B1 | > 10 |
| B2 | > 10 |
| B3 | 0.0706 |
| B4 | 5.06 |
| B5 | 0.000509 |
| B6 | 2.86 |

The binders below were run against SARS-CoV-2 Omicron BQ.1.1 spike pseudovirus in the same assay as above.
Method: as §1

| Binder | pseudovirus neutralization IC50 [µg/mL] |
| --- | --- |
| B1 | > 10 |
| B2 | > 10 |
| B3 | > 10 |
| B4 | 4.56 |
| B5 | > 10 |
| B6 | > 10 |

These binders were tested against SARS-CoV-2 Omicron XBB spike pseudovirus in the same assay as above.
Method: as §1

| Binder | pseudovirus neutralization IC50 [µg/mL] |
| --- | --- |
| B1 | > 10 |
| B2 | > 10 |
| B3 | > 10 |
| B4 | 4.27 |
| B5 | > 10 |
| B6 | 2.51 |

These binders were tested against SARS-CoV-2 early D614G spike pseudovirus in the same assay as above.
Method: as §1

| Binder | pseudovirus neutralization IC50 [µg/mL] |
| --- | --- |
| B1 | > 10 |
| B2 | 0.00506 |
| B3 | 0.0342 |
| B4 | 1.01 |
| B5 | 0.001 |
| B6 | 1.36 |
